PMC7658014

What was measured:
His6-OpaR [1] = target: His6-OpaR (UniProt Q79YV4); test: EMSA; conditions: EMSA: 0.4 ng probe, 20 uL of 100 mM HEPES pH 7.6, 5 mM EDTA, 50 mM (NH4)2SO4, 5 mM DTT, 1% Tween 20, 150 mM KCl, 25 C, 30 min, recombinant protein, residues 1-204, protein details: N-terminal His6 (pET28a), label: 3' digoxigenin-11-ddUTP, probe letters rebuilt from the primers and the genome
His6-OpaR [2] = target: His6-OpaR (UniProt Q79YV4); test: DNase I footprinting; conditions: footprinting: 75 ng probe, DIG Gel Shift Kit binding buffer, 25 C, 30 min; recombinant protein; residues 1-204; protein details: N-terminal His6 (pET28a); label: 5' 6-FAM (sense or antisense); probe letters rebuilt from the primers and the genome

Sequence	binding result (His6-OpaR [1])	binding result (His6-OpaR [2])	also measured
AACCAGTGTAAACACAATCAACATCTTGCTAAATTAGCAATCTGTGCTGTTTATATGAAGTCAGACCAATATAAGCATTGGGAGAAACGGTTAGTAAGAAAAGACAAGGGTTGGCTAAGTG (double strand) [protease II P1]	–	–	binding result (His6-OpaR [1]; two shifted bands): binds
AGTACATCATGATCGTCGTGATGATCATTGGCCGTATTGGGCCTTTGACGCTCGCATATATGTTAGCGAGACCAGAGCCAACCTTGATTAACTACCCAGAAGACACGGTTCTTACTGGTTGATTTGTCAGTAACAAGCAAAATGAATGC (double strand) [m6 protease P1]	binds	–	–
CCTCTCGCTCTGAAAGGTCGTTTTCTAGTTCAGACTTCAACGCCTTTAATGTACTGAGCTCTTCGCCCATGCTGCGTGAGTGCTCGGTGAGCTGCGCTTGTTTCATCGCTGCGCTATCGACCCGCGCGTAGAGATGGTTTATGAGAATGGCGGTAGCTGCCAAAGTCAGTACAAATAGCCCTAAAAAGGTTTTTAGGTTGCGTTGCATCCGTTTACTGAAATACCAATGCTTGGAGCCATTGATGGTTGATATCGAGATCGTCAGTTGGTCTTTCATCATGTCGTAATGATCGTATTCTGGTATAAGCCTCGTCACTGAGTGAGCTCGACTGTAAGGAAAACCACAGGGGACTGCCAGAGGCAAATTGGAAAGAAGTGTCAGGTCGTGAGCCGTTTTCCGATATTTGATAAAAGACTCAGTGTGGATTTAATGTTGGGTTAATTTTGGTCGGTGTTGCATGTTTGGCACTTTAGAGTGACGAAATTACCAATAGTATGAATGTGCAATTCAACATACTTCACGGTTTATCCTATAAATTGCGGATATTTTAAGAAATTAATATTCATTAAATTGATAACTGGCGACGGATCTTTATGATGACGGTTGATATGCCGATAGAGCACTCATTAGCCAGTGTTTGGCGGTGTCGGAGAACTGTAATTCGTCTCTACAGAACTCGATTTATTAAGGCTTAAAACTCGAATGCAAAACGCATTTACGAACCG (double strand) [lytM footprint probe]	–	binds	–
CGTTTTTTCAAGCAGGTTAGATAAAAATAATATTTAATTATGAAAATGATAATTGATCTCATTTTTATTTAAGGGCAGAATACGCGGATTCCATTAATCCTATAAATG (double strand) [protease II P2]	binds	–	–
GAAGGTCGCGCGGTCAAAAGAGAGGTTGTAGGTGGCAATCTTTACTTCAGTTGGCTGAACGTTTACGTATTTCGTGTCGTCGTCATTGCAGCCAGTCAGTAAAGCGGCACCGATAAGGAGAGCGAGAGAAGTTTTAATTGTTTTCATGGGTACGTCATACCTTATAATTGATTCGGGCAAATATTAATAACATCAGTAATATTTGTAAGCGATATGAGTCACACAAACGTTTGCATAATTACATATACAATCAATTTTTGTGTGATTTGTGCAATAAATGCGACAGTTTCAACATCAAAAGGTTATATGCAAATTGTTAAAGGTATATGTCGAGAGCGTTGAATTGCCATAAACTCATCCATAAGGTCTATAAATTCCTGTGCTAGACTCAATGAACAGAATGAGATCAATAAGCCTAACGTCCTGTTAAGGGATTATTCGGCGCATAAAATCTGTCAGTTTGGCTTTGCTATTTGTGCAAAATAGGGGACTTACCGATGGATCTAGGATCAAAATATCAGCGCAAGCTCGCAGTTGGCTTGGTGTTGGTGTCACCACTTCTTGTTTCACCTTCTCTCTCTGCCGCTCAGTTGGAGCGATTAGAGCCA (double strand) [mcp02 footprint probe]	–	binds	–
GAATTTAAAGTGATATTTTGACTTTTTTGAGCGTCGATTGGTCATCGGCGCTCAAACATTTATAAATAACGTGGTCTTCTGCTCAAATTTTCTTTTTGATCCCCTTGTCAGCATTCCCTTATCCTTTCATTTCTGTA (double strand) [m6 protease P2]	binds	–	–
TACGGCTCAGCCCCCATCAAAACCTTTTAGCTTAGAATAGAAGTCTACTGACAAATTTACCAATAAGGAAAGCATCTAAGGCATGCAATAGACCGATAGCAACTGTGAGGAAATGGGCGGGAGCTAAC (double strand) [serine protease P1]	binds	–	–
TGATGATCTTGTTGTTGCTGCGTGCAAAGAAAAAACAGTGTTAGCCGTTCATTACGTGCAGAAGAAAAAATTGGCAGACAAGCTTGCTGGTGTAGCAAGTAAAGTCGCTGACAGTGTTGTGCTTAAACTTGCAGAGCGTGGTCAAAAACCAATTGTCTAATCAATGAGATAATTCGGTCATTCAACATGGCGAGAGTGAAAACTCTCGCCATTTTTATTGGAACTAATTTGTCTACAAACGACTCAATATCCAGTACTTATTTTTATGTGTCCTGATGAACCCAAGTGAGCATTGGGTGTAATGCTTTACACGACATTTTTCCTCGCTCCAGAAGGCGATTACCCGTATAATACGCGCCTCGAAAACCGAGCAAATTGCTAAAAAGAAACTATAGGTGGAGAAGAACATGTCCTCTCAAACTCCGGTTGTAACCGTAGATGGACCTAGTGGTGCAGGTAAAGGCACTTTATGTATGTTGCTGGCGAAAAAGTTGG (double strand) [periplasmic protease footprint probe]	–	binds	–
TGCAGGTTTGACGGCAGAGCTTTCAGAGCCTGGAAAGTACATCATGATCGTCGTGATGATCATTGGCCGTATTGGGCCTTTGACGCTCGCATATATGTTAGCGAGACCAGAGCCAACCTTGATTAACTACCCAGAAGACACGGTTCTTACTGGTTGATTTGTCAGTAACAAGCAAAATGAATGCAAATTAACGCTTTGAATTTAAAGTGATATTTTGACTTTTTTGAGCGTCGATTGGTCATCGGCGCTCAAACATTTATAAATAACGTGGTCTTCTGCTCAAATTTTCTTTTTGATCCCCTTGTCAGCATTCCCTTATCCTTTCATTTCTGTACCATTCATTCACTTAATTTATATCTAATGCGTAAATAACCATCAGGTAACCGCTCGTTAAATTGATGGGTATCTGAGTTCGTTTTACGCATGGTGAATTGAAAAGATGGAGCCGTACTTTGAAATTCCACACCCTTGCCTTGACCATGCTGACTGCGCTTGTTGCCGGAAACAGTATGGCAACGACACCACCATCGCCAATTTGGCATCCGATCACGCTGAGTGACGGAAGCAATAGCGAGGCGATTTTACGCGGAACTGCTGATTTCCATTGGTTTGAAGACAAACAAGGCAATGCCTTGATTCAGGAAGATGGTGTTTGGTTTTTTGCTCAGCTCCAGCGTAATTCAGACACCCCTGA (double strand) [m6 protease footprint probe]	–	binds	–
TGCGCCAGCAGATCTTGTGTCAGTGCCTGATAACTTTTTTGATACTGTTCGGTCTTGCGGTTTTGCTGCGTCAAGTAGGTAAGAACTCGCTCATCTTTACGAGCGTCATCTCGCAGCCAGTTAAAATCATCAGCGGCAGTAGCGCCAAAACTAGAGGTAACTATGAGCCCTAAAAAAACATGAGTAAATTTCATATAGAGAGCGAATTCATTTATAGGATTAATGGAATCCGCGTATTCTGCCCTTAAATAAAAATGAGATCAATTATCATTTTCATAATTAAATATTATTTTTATCTAACCTGCTTGAAAAAACGTTTGCTTTAACCAGTGTAAACACAATCAACATCTTGCTAAATTAGCAATCTGTGCTGTTTATATGAAGTCAGACCAATATAAGCATTGGGAGAAACGGTTAGTAAGAAAAGACAAGGGTTGGCTAAGTGACGGGCATTAAAAAATCCGAGTGCGAACACTCGGATTTTATATGCATTAGAATCAGTTTAGAACTGAGGCGATCATGACTCTTCAGAGCTTGGTGCCGCAGGCTTTTTCTTAGGGATGAACACGTCATCACCCACCGATACGTTTTTGT (double strand) [protease II footprint probe]	–	binds	–

For at least one entry, the source does not settle the construct or the ends of the probe.
